Measurements published in patent publication US20260063625A1, “COMPOSITIONS FOR AND METHODS OF DETECTING FOOD TOXINS” (priority 2022, published 2026).

B1: NpSxph: Saxiphilin of Nanorana parkeri, High Himalaya frog, SEQ ID NO:2 (protein, listed as Nanorana parkeri)
chain: MALTFHTALYFTIVGLSFAASDARHVQWCTISHLEQKKCNDLVGSCNVPDITLACVYRSSTENCMAAIKDGQADAMFLDSGDVYKASLDHYNLKPIIAEPYSLHRELTKCLKHRQESLGGDKMVKGRYIPQCDEKGNYHPVQCHASTGYCWCVNANGEKIEGTNTTPVQTPPTCPSQVLTKCLKERQEALGGKRIAIGRYIPQCDEQGNYRPMQCHGSTGYCWCVNAIGEKIEGTNTPPGNTQPTCQSHDWDTCHYAVAVVKNSSTFQFGQLKGKRSCHSGLSKTDGWNAPVNVFVEKKLLPWDGLAKGSIERAVSKFFSASCIPGATETNLCKQCIGEEEKKCKSSHDEPYYGDHGAFRCLQEDKGDVAFLKNTALPDEHSGVYELLCPDNTRKPLNKYKECNLGKVPADAVVTRKAGDKTKDINDFLLEAQKKKCKLFGSPHGKDLMFDDSTTHLAPLPSEIDAFFFLGVKWYNAMKALTEDVKLPSKNKVRWCTINKPEMMKCKDWAAVSGGAIACTEASCPEHCVKQILKGEADAVTLDVQYMYMALMCGLLPAVEEYPNKDDFHPCQIPGSTIKDFGTKRAVALVKKSNKDIKWNNLKGKKSCHTHVGDIPGWVIPAGLISNQNDNIDIESFFGESCAPGSDTNSKLCKLCIGDPENPKASTRCSLSDKEAYYGNEGAFRCLVEKGDVAFVPHTVVFANTDGKNPAEWAKDLKSEDFEILCLDGSRAPVTNYRGCNLSGLPPRAIVTREESVSDVVRILINQQSLYGRNGFEKDMFQMFSSAKGQNLLFNDETQCLIEFDRQPKDIMEDYFGVRYYTAVYSASRSAVPSELIPACTFKHC
B2: F561A: RcSxph mutant F561A (protein)
chain: MAPTFQTALFFTIISLSFAAPNAKQVRWCAISDLEQKKCNDLVGSCNVPDITLVCVLRSSTEDCMTAIKDGQADAMFLDSGEVYEASKDPYNLKPIIAEPYSSNRDLQKCLKERQQALAKKMIGHYIPQCDEKGNYQPQQCHGSTGHCWCVNAMGEKISGTNTPPGQTRATCERHELPKCLKERQVALGGDEKVLGRFVPQCDEKGNYEPQQFHGSTGYSWCVNAIGEEIAGTKTPPGKIPATCQKHDLVTTCHYAVAMVKKSSAFQFNQLKGKRSCHSGVSKTDGWKALVTVLVEKKLLSWDGPAKESIQRAMSKFFSVSCIPGATQTNLCKQCKGEEGKNCKNSHDEPYYGNYGAFRCLKEDMGDVAFLRSTALSDEHSEVYELLCPDNTRKPLNKYKECNLGTVPAGTVVTRKISDKTEDINNFLMEAQKRQCKLFSSAHGKDLMFDDSTLQLALLSSEVDAFLYLGVKLFHAMKALTGDAHLPSKNKVRWCTINKLEKMKCDDWSAVSGGAIACTEASCPKGCVKQILKGEADAVKLEVQYMYEALMCGLLPAVEEYHNKDDFGPCKTPGSPYTDAGTLRAVALVKKSNKDINWNNIKGKKSCHTGVGDIAGWVIPVSLIRRQNDNSDIDSFFGESCAPGSDTKSNLCKLCIGDPKNSAANTKCSLSDKEAYYGNQGAFRCLVEKGDVAFVPHTVVFENTDGKNPAVWAKNLKSEDFELLCLDGSRAPVSNYKSCKLSGIPPPAIVTREESISDVVRIVANQQSLYGRKGFEKDMFQLFSSNKGNNLLFNDNTQCLITFDRQPKDIMEDYFGKPYYTTVYGASRSAMSSELISACTIKHC
B3: D794E: RcSxph mutant D794E (protein)
chain: MAPTFQTALFFTIISLSFAAPNAKQVRWCAISDLEQKKCNDLVGSCNVPDITLVCVLRSSTEDCMTAIKDGQADAMFLDSGEVYEASKDPYNLKPIIAEPYSSNRDLQKCLKERQQALAKKMIGHYIPQCDEKGNYQPQQCHGSTGHCWCVNAMGEKISGTNTPPGQTRATCERHELPKCLKERQVALGGDEKVLGRFVPQCDEKGNYEPQQFHGSTGYSWCVNAIGEEIAGTKTPPGKIPATCQKHDLVTTCHYAVAMVKKSSAFQFNQLKGKRSCHSGVSKTDGWKALVTVLVEKKLLSWDGPAKESIQRAMSKFFSVSCIPGATQTNLCKQCKGEEGKNCKNSHDEPYYGNYGAFRCLKEDMGDVAFLRSTALSDEHSEVYELLCPDNTRKPLNKYKECNLGTVPAGTVVTRKISDKTEDINNFLMEAQKRQCKLFSSAHGKDLMFDDSTLQLALLSSEVDAFLYLGVKLFHAMKALTGDAHLPSKNKVRWCTINKLEKMKCDDWSAVSGGAIACTEASCPKGCVKQILKGEADAVKLEVQYMYEALMCGLLPAVEEYHNKDDFGPCKTPGSPYTDFGTLRAVALVKKSNKDINWNNIKGKKSCHTGVGDIAGWVIPVSLIRRQNDNSDIDSFFGESCAPGSDTKSNLCKLCIGDPKNSAANTKCSLSDKEAYYGNQGAFRCLVEKGDVAFVPHTVVFENTDGKNPAVWAKNLKSEDFELLCLDGSRAPVSNYKSCKLSGIPPPAIVTREESISDVVRIVANQQSLYGRKGFEKDMFQLFSSNKGNNLLFNDNTQCLITFDRQPKDIMEEYFGKPYYTTVYGASRSAMSSELISACTIKHC
B4: E540D: RcSxph mutant E540D (protein)
chain: MAPTFQTALFFTIISLSFAAPNAKQVRWCAISDLEQKKCNDLVGSCNVPDITLVCVLRSSTEDCMTAIKDGQADAMFLDSGEVYEASKDPYNLKPIIAEPYSSNRDLQKCLKERQQALAKKMIGHYIPQCDEKGNYQPQQCHGSTGHCWCVNAMGEKISGTNTPPGQTRATCERHELPKCLKERQVALGGDEKVLGRFVPQCDEKGNYEPQQFHGSTGYSWCVNAIGEEIAGTKTPPGKIPATCQKHDLVTTCHYAVAMVKKSSAFQFNQLKGKRSCHSGVSKTDGWKALVTVLVEKKLLSWDGPAKESIQRAMSKFFSVSCIPGATQTNLCKQCKGEEGKNCKNSHDEPYYGNYGAFRCLKEDMGDVAFLRSTALSDEHSEVYELLCPDNTRKPLNKYKECNLGTVPAGTVVTRKISDKTEDINNFLMEAQKRQCKLFSSAHGKDLMFDDSTLQLALLSSEVDAFLYLGVKLFHAMKALTGDAHLPSKNKVRWCTINKLEKMKCDDWSAVSGGAIACTEASCPKGCVKQILKGEADAVKLEVQYMYEALMCGLLPAVDEYHNKDDFGPCKTPGSPYTDFGTLRAVALVKKSNKDINWNNIKGKKSCHTGVGDIAGWVIPVSLIRRQNDNSDIDSFFGESCAPGSDTKSNLCKLCIGDPKNSAANTKCSLSDKEAYYGNQGAFRCLVEKGDVAFVPHTVVFENTDGKNPAVWAKNLKSEDFELLCLDGSRAPVSNYKSCKLSGIPPPAIVTREESISDVVRIVANQQSLYGRKGFEKDMFQLFSSNKGNNLLFNDNTQCLITFDRQPKDIMEDYFGKPYYTTVYGASRSAMSSELISACTIKHC
B5: P727A: RcSxph mutant P727A (protein)
chain: MAPTFQTALFFTIISLSFAAPNAKQVRWCAISDLEQKKCNDLVGSCNVPDITLVCVLRSSTEDCMTAIKDGQADAMFLDSGEVYEASKDPYNLKPIIAEPYSSNRDLQKCLKERQQALAKKMIGHYIPQCDEKGNYQPQQCHGSTGHCWCVNAMGEKISGTNTPPGQTRATCERHELPKCLKERQVALGGDEKVLGRFVPQCDEKGNYEPQQFHGSTGYSWCVNAIGEEIAGTKTPPGKIPATCQKHDLVTTCHYAVAMVKKSSAFQFNQLKGKRSCHSGVSKTDGWKALVTVLVEKKLLSWDGPAKESIQRAMSKFFSVSCIPGATQTNLCKQCKGEEGKNCKNSHDEPYYGNYGAFRCLKEDMGDVAFLRSTALSDEHSEVYELLCPDNTRKPLNKYKECNLGTVPAGTVVTRKISDKTEDINNFLMEAQKRQCKLFSSAHGKDLMFDDSTLQLALLSSEVDAFLYLGVKLFHAMKALTGDAHLPSKNKVRWCTINKLEKMKCDDWSAVSGGAIACTEASCPKGCVKQILKGEADAVKLEVQYMYEALMCGLLPAVEEYHNKDDFGPCKTPGSPYTDFGTLRAVALVKKSNKDINWNNIKGKKSCHTGVGDIAGWVIPVSLIRRQNDNSDIDSFFGESCAPGSDTKSNLCKLCIGDPKNSAANTKCSLSDKEAYYGNQGAFRCLVEKGDVAFVPHTVVFENTDGKNPAVWAKNLKSEDFELLCLDGSRAPVSNYKSCKLSGIPAPAIVTREESISDVVRIVANQQSLYGRKGFEKDMFQLFSSNKGNNLLFNDNTQCLITFDRQPKDIMEDYFGKPYYTTVYGASRSAMSSELISACTIKHC
B6: RcSxph: Saxiphilin of Rana (Lithobates) catesbeianus, American bullfrog, SEQ ID NO:1 (protein)
chain: MAPTFQTALFFTIISLSFAAPNAKQVRWCAISDLEQKKCNDLVGSCNVPDITLVCVLRSSTEDCMTAIKDGQADAMFLDSGEVYEASKDPYNLKPIIAEPYSSNRDLQKCLKERQQALAKKMIGHYIPQCDEKGNYQPQQCHGSTGHCWCVNAMGEKISGTNTPPGQTRATCERHELPKCLKERQVALGGDEKVLGRFVPQCDEKGNYEPQQFHGSTGYSWCVNAIGEEIAGTKTPPGKIPATCQKHDLVTTCHYAVAMVKKSSAFQFNQLKGKRSCHSGVSKTDGWKALVTVLVEKKLLSWDGPAKESIQRAMSKFFSVSCIPGATQTNLCKQCKGEEGKNCKNSHDEPYYGNYGAFRCLKEDMGDVAFLRSTALSDEHSEVYELLCPDNTRKPLNKYKECNLGTVPAGTVVTRKISDKTEDINNFLMEAQKRQCKLFSSAHGKDLMFDDSTLQLALLSSEVDAFLYLGVKLFHAMKALTGDAHLPSKNKVRWCTINKLEKMKCDDWSAVSGGAIACTEASCPKGCVKQILKGEADAVKLEVQYMYEALMCGLLPAVEEYHNKDDFGPCKTPGSPYTDFGTLRAVALVKKSNKDINWNNIKGKKSCHTGVGDIAGWVIPVSLIRRQNDNSDIDSFFGESCAPGSDTKSNLCKLCIGDPKNSAANTKCSLSDKEAYYGNQGAFRCLVEKGDVAFVPHTVVFENTDGKNPAVWAKNLKSEDFELLCLDGSRAPVSNYKSCKLSGIPPPAIVTREESISDVVRIVANQQSLYGRKGFEKDMFQLFSSNKGNNLLFNDNTQCLITFDRQPKDIMEDYFGKPYYTTVYGASRSAMSSELISACTIKHC

Test: Isothermal titration calorimetry (ITC) of STX into Sxph
Conditions: 25° C., single binding site model

Row | Molecule | N (sites), stoichiometry | further results
1 | B1 | – | N (sites), stoichiometry (listed as NpSxph WT): 0.92 ± 0.02 sites
2 | B2 | 1.07 ± 0.01 sites | –
3 | B3 | 0.99 ± 0.01 sites | –
4 | B4 | 0.98 ± 0.02 sites | –
5 | B5 | 0.97 ± 0.03 sites | –
6 | B6 | – | N (sites), stoichiometry (listed as RcSxph WT): 1.02 ± 0.01 sites
